Results of unrelated studies side by side (data: NIAID ChemDB).

Blank or dashed fields: not listed here. ICn is the concentration giving n% inhibition. Lines come from different laboratories, so protocols vary. MIC bound: limit read from a one-dose screen. Inhibition is in % at the dose shown (toxicity tests: loss of growth or viability).

compound | measure | test | protein | strain | method | dose | agent | value
Nc1ccc(Sc2ccc([N+](=O)[O-])cc2)cc1 | MIC | culture | - | H37Rv | - | - | Mycobacterium tuberculosis | >100 µg/mL
Fc1ccc(N2CCCCC2)c(NC(=S)c2ccncc2)c1 | inhibition | host protein | Tie2 | - | kinase activity | 10 µM | - | -8%
c1ccc2c(-c3cncc(N4CCN(c5ccncc5)CC4)n3)csc2c1 | IC50 | target | UL97 kinase | - | - | - | Cytomegalovirus | <10 µM
Cc1ncc([N+](=O)[O-])n1CCSC(=N)N | MIC bound | culture | - | H37Rv | resazurin | - | Mycobacterium tuberculosis | >6.25 µg/mL
Oc1ccc(-c2cncc(N3CCN(c4ccncc4)CC3)n2)cc1 | IC50 | target | UL97 kinase | - | - | - | Cytomegalovirus | <100 µM
CNc1ccc(Nc2cc(S(=O)(=O)O)c(N)c3c2C(=O)c2ccccc2C3=O)cc1 | inhibition | culture | - | H37Rv | BACTEC | 12.5 µg/mL | Mycobacterium tuberculosis | 5%
O=C1OC(=O)c2c(I)c(I)c(I)c(I)c21 | MIC | culture | - | H37Rv | - | - | Mycobacterium tuberculosis | >100 µg/mL
Clc1cccc(N2CCN(c3cncc(-c4ccccc4Oc4ccccc4)n3)CC2)c1 | IC50 | target | UL97 kinase | - | - | - | Cytomegalovirus | <100 µM
O=C1O[C@H]2C(O[C@@H](N(O)c3ccccc3)[C@@H]2O)C1O | inhibition | culture | - | H37Rv | resazurin | 6.25 µg/mL | Mycobacterium tuberculosis | -8%
Nc1ccc(N(c2ccc(N)cc2)c2ccc(N)cc2)cc1 | MIC | culture | - | H37Rv | - | - | Mycobacterium tuberculosis | >100 µg/mL
c1cc(N2CCN(c3cncc(-c4ccsc4)n3)CC2)ccn1 | IC50 | target | UL97 kinase | - | - | - | Cytomegalovirus | <10 µM
COc1cccc2c1oc1c(OC)cccc12 | MIC | culture | - | H37Rv | - | - | Mycobacterium tuberculosis | >100 µg/mL
O=C1C(=O)c2ccccc2C(O)=C1C(C1=C(O)c2ccccc2C(=O)C1=O)c1ccc(C(C2=C(O)c3ccccc3C(=O)C2=O)C2=C(O)c3ccccc3C(=O)C2=O)cc1 | MIC bound | culture | - | H37Rv | BACTEC | - | Mycobacterium tuberculosis | >12.8 µg/mL
CC(=O)Nc1c(Cl)cc(N)cc1Cl | MIC | culture | - | H37Rv | - | - | Mycobacterium tuberculosis | >100 µg/mL
Nc1nc(N)c(N=Nc2ccc(S(=O)(=O)Nc3ccccn3)cc2)c(=O)[nH]1 | inhibition | culture | - | H37Rv | BACTEC | 12.5 µg/mL | Mycobacterium tuberculosis | 16%
OCc1ccc(-c2cncc(N3CCN(c4ccc(F)cc4)CC3)n2)cc1 | inhibition | target | UL97 kinase | - | - | 1 µM | Cytomegalovirus | <50%
COc1c(OC2OC(CO)C(O)C(O)C2O)cc2c(c1OC)-c1ccc(OC)c(=O)cc1C(NC(C)=O)CC2 | MIC | culture | - | H37Rv | BACTEC | - | Mycobacterium tuberculosis | ≥128 µg/mL
CC(=O)NCC(=O)O | MIC | culture | - | H37Rv | - | - | Mycobacterium tuberculosis | >100 µg/mL
C[C@H](NC(=O)[C@H](CO)NC(=O)CN)C(=O)O | MIC | culture | - | H37Rv | BACTEC | - | Mycobacterium tuberculosis | ≥12.8 µg/mL
Cc1cc(-c2ccccc2Cl)c(C(=O)O)[nH]1 | MIC | culture | - | H37Rv | - | - | Mycobacterium tuberculosis | 100 µg/mL
O=C(NCCO)c1cccc(-c2cncc(N3CCN(c4ccncc4)CC3)n2)c1 | inhibition | target | UL97 kinase | - | - | 10 µM | Cytomegalovirus | >15%

A second listing of 2 rows from above:

compound	measure	test	protein	strain	method	dose	agent	value
CC(=O)NCC(=O)O	MIC	culture	-	H37Rv	-	-	Mycobacterium tuberculosis	>100 µg/mL
O=C1O[C@H]2C(O[C@@H](N(O)c3ccccc3)[C@@H]2O)C1O	inhibition	culture	-	H37Rv	resazurin	6.25 µg/mL	Mycobacterium tuberculosis	-8%